This experiment has as its system M. smegmatis 4x03863 Mutant 2 (GyrB Gly83Ser).

Turning to `CO[C@@H]1[C@@H](OC(N)=O)[C@@H](O)[C@H](Oc2ccc3c(O)c(NC(=O)c4ccc(O)c(CC=C(C)C)c4)c(=O)oc3c2C)OC1(C)C` [novobiocin, reference compound], the “increase in resistance of mutant strain” value came to 32 fold.

For the origin of these results see article PMC7556816, “Structural and mechanistic analysis of ATPase inhibitors targeting mycobacterial DNA gyrase” (Journal of Antimicrobial Chemotherapy, 2020).
